Measured values from several laboratories, pooled; numbers as filed in NIAID ChemDB.

Common to all: tests on isolated targets; species: HIV-1; target: Reverse transcriptase; read-out: fold resistance

a–b is a range or a potency band. Rows are shuffled and stem from different studies. Fold resistance: result on the changed form divided by that on wild type. Blank or dashed fields: not listed here.

compound	strain or isolate	read by	mutations	result
CC(C)=CCOc1cc(NC(=S)c2ccoc2C)ccc1Cl	-	-	RT-Y181I	2.97
Cc1c(Sc2ccccc2)n(COCCO)c(=O)[nH]c1=O	-	-	RT-Y188L	>10
CCc1c([Se]c2ccccc2)n(COCc2ccccc2)c(=O)[nH]c1=O	-	RT activity	RT-L100I	1
Nc1ccn([C@H]2CC[C@@H](COP(=O)(O)OP(=O)(O)OP(=O)(O)O)O2)c(=O)n1	-	nucleotide incorporation / radiometric	RT-K65R	5.19
Cc1cn([C@@H]2O[C@H](CO[Si](C)(C)C(C)(C)C)C3(OS(=O)(=O)C=C3N)[C@H]2O[Si](C)(C)C(C)(C)C)c(=O)n(C)c1=O	IIIB	RT activity	RT-V106A	>276
O=c1cnc2ccccc2n1CCNC(=S)Nc1ccc(Br)cn1	-	nucleotide incorporation	RT-Y181I	10
Cc1cn([C@H]2C=C[C@@H](COP(=O)(O)OP(=O)(O)OP(=O)(O)O)O2)c(=O)[nH]c1=O	-	nucleotide incorporation / radiometric	RT-I132M	0.6
CCOCn1c(Cc2ccccc2)c(C(C)C)c(=O)[nH]c1=O	-	nucleotide incorporation / radiometric	RT-V106A	11
O=c1c2cccn2c2ccccc2n1CCNC(=S)Nc1ccc(Br)cn1	-	nucleotide incorporation	RT-V106A	1.93
Cc1c(Cc2c(Cl)cccc2Cl)nc(Sc2ccccc2)[nH]c1=O	-	-	Y181I	>11
CC(C)=CCOc1cc(NC(=S)c2ccoc2C)ccc1Cl	-	nucleotide incorporation / radiometric	RT-V106A P225H	104
NC(=O)OCc1cn(Cc2ccncc2)c(Sc2cc(Cl)cc(Cl)c2)c1C1CCC1	-	nucleotide incorporation / radiometric	RT-Y181I	3750
Cc1cc2c(cc1C)n1cccc1c(=O)n2CCNC(=S)Nc1ccc(Br)cn1	-	nucleotide incorporation	RT-V106A	0.6
Cc1c(Cc2c(Cl)cccc2Cl)nc(Sc2ccc(C#N)cc2)[nH]c1=O	-	-	Y181I	>17.4
CCOc1ccccc1N1CCN(C(=O)c2cc3cc4c(cc3[nH]2)OCO4)CC1	IIIB	-	RT-Y181C	>9
CCN1c2ncc(CCOc3ccc(CCC(=O)O)c4ccccc34)cc2C(=O)N(C)c2ccc(C)nc21	-	nucleotide incorporation / radiometric	RT-V106A	>10
O=C1c2ccncc2C(=O)N1CCNC(=S)Nc1ccc(Br)cn1	-	nucleotide incorporation	RT-Y188L	14.3
CCN1c2ncc(CCOc3ccc(C(=O)O)c4ccccc34)cc2C(=O)Nc2c(C)cc(Cl)nc21	-	nucleotide incorporation / radiometric	RT-V106A	1–10
O=c1c2nccn2c2ccccc2n1CCNC(=S)Nc1ccc(Br)cn1	-	nucleotide incorporation	RT-Y181I	5.8
CCN1c2ncccc2C(=O)Nc2c(C)cc(NCCO)nc21	-	nucleotide incorporation	RT-Y181C	>11.11
Cc1cn([C@H]2C=C[C@@H](COP(=O)(O)OP(=O)(O)OP(=O)(O)O)O2)c(=O)[nH]c1=O	-	nucleotide incorporation / radiometric	RT-T215Y	2.4
C/C=C/CSc1cc(NC(=S)c2ccsc2C)ccc1Cl	-	-	RT-L100I	1.27
Nc1ncnc2c1ncn2[C@H]1CC[C@@H](COP(=O)(O)OP(=O)(O)OP(=O)(O)O)O1	-	nucleotide incorporation / radiometric	RT-L74V	3.21
CCc1c(Sc2ccccn2)n(COCc2ccccc2)c(=O)[nH]c1=O	-	RT activity	RT-T181C	53
CN(C)P(=O)(c1ccccc1)c1c(C(N)=O)[nH]c2ccc(Cl)cc12	-	-	RT-K103N	>3.57
CC(C)Nc1cccnc1N1CCN(C(=O)c2cc3cc4c(cc3[nH]2)OCO4)CC1	IIIB	-	RT-Y181C	19
CC(C)=CCN1Cc2cc(Cl)cc3[nH]c(=O)n(c23)C[C@@H]1C	-	nucleotide incorporation / radiometric	RT-P225H	2.7
CCN1c2ncc(CCOc3ccc(S(N)(=O)=O)c4ccccc34)cc2C(=O)N(C)c2cccnc21	-	nucleotide incorporation / radiometric	RT-V106A	1–10
CCNc1cccnc1N1CCN(C(=O)c2cc3cc4c(cc3[nH]2)OCO4)CC1	IIIB	-	RT-Y181C	45
Cc1cn([C@H]2CC[C@@H](COP(=O)(O)OP(=O)(O)OP(=O)(O)O)O2)c(=O)[nH]c1=O	-	RT activity	RT-Y188L	1
Cc1c(Sc2ccccc2)n(COCCO)c(=O)[nH]c1=O	-	nucleotide incorporation	RT-Y181I	20
Cc1c(Cc2c(Cl)cccc2Cl)nc(Sc2ccc(F)cc2F)[nH]c1=O	-	-	RT-K103N	>40
CCN1c2ncc(CCOc3ccc4cc(C(=O)O)ccc4c3)cc2C(=O)N(C)c2cccnc21	-	nucleotide incorporation / radiometric	RT-K103N Y181C	1–10
OCc1cn(Cc2ccncc2)c(Sc2cc(Cl)cc(Cl)c2)c1C1CCC1	-	nucleotide incorporation / radiometric	RT-L100I	14.5
CCc1c(Sc2ccccn2)n(COCc2ccccc2)c(=O)[nH]c1=O	-	-	RT-K103N	3
CC(C)=CCN1Cc2cccc3[nH]c(=S)n(c23)C[C@@H]1C	-	-	RT-Q161L	1
Nc1ncnc2c1ncn2[C@@H]1O[C@H](COP(=O)(O)OP(=O)(O)OP(=O)(O)O)C[C@@H]1F	-	nucleotide incorporation	RT-F77L F116Y Q151M	2.3
O=c1c2cccn2c2cc(Cl)c(Cl)cc2n1CCNC(=S)Nc1ccc(Br)cn1	-	nucleotide incorporation	RT-K103N	15
Cc1c(Cc2c(F)cccc2F)nc(Sc2ccc(Cl)cc2)[nH]c1=O	-	-	Y181I	>18
CCN1c2ncccc2C(=O)N(C)c2ccc(-c3cccc(O)c3)nc21	-	nucleotide incorporation	RT-Y181C	8
Cc1cc(S(N)(=O)=O)ccc1NC(=O)COc1ccc(Cl)cc1C(=O)c1cc(Cl)cc(C#N)c1	-	fluorescence	RT-P236L	3.77
CN(c1ncccc1CO)C1CCN(C(=O)c2cc3cc(NS(C)(=O)=O)ccc3[nH]2)CC1	IIIB	nucleotide incorporation	RT-P236L	7
Cc1occc1C(=S)Nc1ccc(Cl)c(/C=N/OC(C)(C)C)c1	-	-	RT-Y188L	17.27
Nc1ncnc2c1ncn2[C@H]1CC[C@@H](COP(=O)(O)OP(=O)(O)OP(=O)(O)O)O1	-	nucleotide incorporation	RT-A62V V75I F77L F116Y Q151M	2.6
CNc1ccc(Cl)cc1S(=O)(=O)c1ccccc1[N+](=O)[O-]	-	-	RT-P236L	0.00455
Cc1c(Cc2c(F)cccc2F)nc(Sc2ccc(F)cc2F)[nH]c1=O	-	-	Y181I	>13.3

The last 7 rows once more:

compound | strain or isolate | read by | mutations | result
CCN1c2ncccc2C(=O)N(C)c2ccc(-c3cccc(O)c3)nc21 | - | nucleotide incorporation | RT-Y181C | 8
Cc1cc(S(N)(=O)=O)ccc1NC(=O)COc1ccc(Cl)cc1C(=O)c1cc(Cl)cc(C#N)c1 | - | fluorescence | RT-P236L | 3.77
CN(c1ncccc1CO)C1CCN(C(=O)c2cc3cc(NS(C)(=O)=O)ccc3[nH]2)CC1 | IIIB | nucleotide incorporation | RT-P236L | 7
Cc1occc1C(=S)Nc1ccc(Cl)c(/C=N/OC(C)(C)C)c1 | - | - | RT-Y188L | 17.27
Nc1ncnc2c1ncn2[C@H]1CC[C@@H](COP(=O)(O)OP(=O)(O)OP(=O)(O)O)O1 | - | nucleotide incorporation | RT-A62V V75I F77L F116Y Q151M | 2.6
CNc1ccc(Cl)cc1S(=O)(=O)c1ccccc1[N+](=O)[O-] | - | - | RT-P236L | 0.00455
Cc1c(Cc2c(F)cccc2F)nc(Sc2ccc(F)cc2F)[nH]c1=O | - | - | Y181I | >13.3